{"source": "PubChem BioAssay AID1259414 (Drosophila RNAi Screening Center, 2018)", "test": "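Host factors increasing or decreasing Wolbachia levels in cultured fly cells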 (primary screen)", "system": "Drosophila JW18 cells infected with Wolbachia", "knock-down reagent": "long dsRNA against Drosophila genes, 0.25 µg dsRNA per well of a 384-well plate", "timing": "5 days", "treatment": "cells persistently infected with Wolbachia before knock-down; no added drug", "measurement": "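Imaged fluorescence in situ signal for Wolbachia 23S rRNA per DAPI-counted host cell, given as a robust z-score within each plate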", "direction": "Wolbachia per cell robust z: higher = more Wolbachia per host cell than the plate typical", "call rule": "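Active if absolute robust z reaches 1.5 in two or more of three replicates, leaving out multi- or no-target dsRNAs, genes unexpressed in JW18 and A1 wells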", "note": "The deposit covers about 24,000 reagents; below is a random part of those that have a named target and a result. Of all reagents, about 1,210 (5%) are marked active. 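Inactive calls also include excluded dsRNAs with several or no targets, genes unexpressed in JW18, and well A1, regardless of score.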 Unmarked entries are inactive. A plus sign joins genes that one reagent is predicted to hit. No sequences are given here."}
{"target gene": "GABA-B-R3", "PubChem SID": "SID104180353", "Wolbachia per cell robust z, rep 1": 0.751, "Wolbachia per cell robust z, rep 2": 0.123, "Wolbachia per cell robust z, rep 3": -0.0917}
{"target gene": "GABA-B-R3", "PubChem SID": "SID104207948", "Wolbachia per cell robust z, rep 1": -0.176, "Wolbachia per cell robust z, rep 2": -0.0166, "Wolbachia per cell robust z, rep 3": -0.25}
{"target gene": "CG18581", "PubChem SID": "SID104190116", "Wolbachia per cell robust z, rep 1": -0.77, "Wolbachia per cell robust z, rep 2": 0.136, "Wolbachia per cell robust z, rep 3": 1.03}
{"target gene": "Prosalpha1 + Prosalpha1R", "PubChem SID": "SID104187307", "Wolbachia per cell robust z, rep 1": -0.0457, "Wolbachia per cell robust z, rep 2": 1.83, "Wolbachia per cell robust z, rep 3": 2.19}
{"target gene": "Prosalpha1 + Prosalpha1R", "PubChem SID": "SID104207631", "Wolbachia per cell robust z, rep 1": 0.424, "Wolbachia per cell robust z, rep 2": 0.0806, "Wolbachia per cell robust z, rep 3": 1.07}
{"target gene": "CG13625", "PubChem SID": "SID104194419", "Wolbachia per cell robust z, rep 1": -7.48, "Wolbachia per cell robust z, rep 2": -0.267, "Wolbachia per cell robust z, rep 3": -0.448}
{"target gene": "CG3347", "PubChem SID": "SID104180389", "Wolbachia per cell robust z, rep 1": 0.642, "Wolbachia per cell robust z, rep 2": -0.0561, "Wolbachia per cell robust z, rep 3": -0.628}
{"target gene": "Z600", "PubChem SID": "SID104191109", "Wolbachia per cell robust z, rep 1": -0.114, "Wolbachia per cell robust z, rep 2": -1.03, "Wolbachia per cell robust z, rep 3": -0.174}
{"target gene": "Ir94f", "PubChem SID": "SID104193413", "Wolbachia per cell robust z, rep 1": -1.45, "Wolbachia per cell robust z, rep 2": -1.26, "Wolbachia per cell robust z, rep 3": -2.31}
{"target gene": "CG15143", "PubChem SID": "SID104182236", "Wolbachia per cell robust z, rep 1": -0.548, "Wolbachia per cell robust z, rep 2": -0.633, "Wolbachia per cell robust z, rep 3": -0.419}
{"target gene": "SmydA-4", "PubChem SID": "SID104199182", "Wolbachia per cell robust z, rep 1": -1.28, "Wolbachia per cell robust z, rep 2": 0.348, "Wolbachia per cell robust z, rep 3": -1.87}
{"target gene": "SmydA-4", "PubChem SID": "SID104201504", "Wolbachia per cell robust z, rep 1": -2.68, "Wolbachia per cell robust z, rep 2": 0.376, "Wolbachia per cell robust z, rep 3": 0.523}
{"target gene": "SmydA-4", "PubChem SID": "SID104205061", "Wolbachia per cell robust z, rep 1": 0.534, "Wolbachia per cell robust z, rep 2": 0.143, "Wolbachia per cell robust z, rep 3": 0.645}
{"target gene": "CG14515", "PubChem SID": "SID104194659", "Wolbachia per cell robust z, rep 1": -0.369, "Wolbachia per cell robust z, rep 2": -0.175, "Wolbachia per cell robust z, rep 3": -1.12}
{"target gene": "laza", "PubChem SID": "SID104191453", "Wolbachia per cell robust z, rep 1": -2.06, "Wolbachia per cell robust z, rep 2": -2.82, "Wolbachia per cell robust z, rep 3": 1.53}
{"target gene": "laza", "PubChem SID": "SID104202687", "Wolbachia per cell robust z, rep 1": -0.627, "Wolbachia per cell robust z, rep 2": 0.325, "Wolbachia per cell robust z, rep 3": 0.219}
{"target gene": "laza", "PubChem SID": "SID104207673", "Wolbachia per cell robust z, rep 1": -3.37, "Wolbachia per cell robust z, rep 2": -0.598, "Wolbachia per cell robust z, rep 3": -2.68}
{"target gene": "laza", "PubChem SID": "SID104219130", "Wolbachia per cell robust z, rep 1": -0.19, "Wolbachia per cell robust z, rep 2": 0.0254, "Wolbachia per cell robust z, rep 3": -1.79}

Only “Wolbachia per cell robust z, rep 3” (2 entries from above):
CG13625 [SID104194419] = -0.448
CG3347 [SID104180389] = -0.628
